Laboratory results taken from patent US9663478B2, “Benzotriazine oxides as drugs targeting Mycobacterium tuberculosis” (priority 2011, dated 2017).

Tested on: Vero cells
Assay: Cytotoxicity against Vero cells (Cell Titer-Glo)
Conditions: for SI: ratio of the CC50/TB-MIC, Tables P1-P3; for SI (CC50/MIC): Tables 1-4 and text

[O-][n+]1nc(N[C@@H]2C[C@H]3CC[C@@H]2C3)[n+]([O-])c2ccc(F)cc21 (racemic) [SRI-012280]
SI: <4

CCC(CC)Nc1n[n+]([O-])c2cc(F)ccc2[n+]1[O-] [SRI-012279]
SI: 3.5

CC(C)CCC(C)Nc1n[n+]([O-])c2ccccc2[n+]1[O-] (centres unmarked) [SRI-012259]
SI: 3.3

CCNc1n[n+]([O-])c2ccccc2[n+]1[O-] [Compound 8a, 3-(ethylamino)benzo[e][1,2,4]triazine 1,4-dioxide]
SI (CC50/MIC): 17

[O-][n+]1nc(N[C@@H]2C[C@H]3CC[C@@H]2C3)[n+]([O-])c2ccccc21 [Compound 8m, 3-((1R,2R,4S)-bicyclo[2.2.1]heptan-2-ylamino)benzo[e][1,2,4]triazine 1,4-dioxide]
SI (CC50/MIC): 5.5

Nc1n[n+]([O-])c2ccccc2[n+]1[O-] [TPZ, tirapazamine, reference compound]
SI (CC50/MIC): 1.6

[O-][n+]1nc(NC2CCCCC2)[n+]([O-])c2ccccc21 [Compound 8f, 3-(cyclohexylamino)benzo[e][1,2,4]triazine 1,4-dioxide]
SI (CC50/MIC): 3.6

[O-][n+]1nc(N2CCCC2)[n+]([O-])c2cc3c(cc21)CCC3 [Compound 20q, 3-(pyrrolidin-1-yl)-7,8-dihydro-6H-indeno[5,6-e][1,2,4]triazine 1,4-dioxide]
SI (CC50/MIC): 80

CCNc1n[n+]([O-])c2cc(Br)ccc2[n+]1[O-] [Compound 15ca, 7-bromo-3-(ethylamino)benzo[e][1,2,4]triazine 1,4-dioxide]
SI (CC50/MIC): 6.7

[O-][n+]1nc(N[C@@H]2C[C@H]3CC[C@@H]2C3)[n+]([O-])c2cc3c(cc21)CCC3 (racemic) [SRI-012404]
SI: 40

CS(=O)(=O)N1CCN(c2n[n+]([O-])c3cc4c(cc3[n+]2[O-])CCC4)CC1 [Compound 20x, 3-(4-(methylsulfonyl)piperazin-1-yl)-7,8-dihydro-6H-indeno[5,6-e][1,2,4]triazine 1,4-dioxide]
SI (CC50/MIC): >10

COc1ccc2c(c1)[n+]([O-])nc(NC1CCC1)[n+]2[O-] [Compound 15dd, 3-(cyclobutylamino)-7-methoxybenzo[e][1,2,4]triazine 1,4-dioxide]
SI (CC50/MIC): 16

CCNc1n[n+]([O-])c2cc(F)ccc2[n+]1[O-] [Compound 15aa, 3-(ethylamino)-7-fluorobenzo[e][1,2,4]triazine 1,4-dioxide]
SI (CC50/MIC): 7.3

CCNc1n[n+]([O-])c2cccc(C)c2[n+]1[O-] [Compound 15ea, Ethyl-(5-methyl-1,4-dioxy-benzo[1,2,4]triazin-3-yl)-amine]
SI (CC50/MIC): 36
